Compound potency records, mixed from different reports. Data source: NIAID ChemDB in PubChem.

Common to all: enzyme or target tests; species: HIV-1; protein: Protease; read by: HPLC; measure: IC50

Rows are shuffled and stem from different studies. Blank or dashed fields: not listed here. ICn is the concentration giving n% inhibition.

| compound | conditions | strain or isolate | result |
|---|---|---|---|
| COC(=O)[C@H](Cc1ccccc1)NC(=O)[C@H](CCC(=O)OCC1CCCCC1)NC(=O)C[C@H](O)C(CC(C)C)NC(=O)[C@@H](NC(=O)[C@H](Cc1c[nH]c2ccccc12)NC(=O)CCCCC(=O)Nc1ccn([C@H]2CS[C@@H](CO[Si](c3ccccc3)(c3ccccc3)C(C)(C)C)O2)c(=O)n1)C(C)C | - | - | 2 µM |
| CC1(C)CC[C@]2(C(=O)O)CC[C@]3(C)C(=CCC4[C@@]5(C)CC[C@@H](NC(=O)CCCCC(=O)O)C(C)(C)C5CC[C@]43C)C2C1 | - | - | 2.1 µM |
| CC(C)[C@H](NC(=O)[C@@H](C)O)C(=O)N[C@@H](Cc1ccccc1)[C@H](O)CNC[C@@H](O)[C@H](Cc1ccccc1)NC(=O)OC(C)(C)C | pH 5.5 | - | <10 µM |
| CCCCCC/C=C/CCCCCCCCCc1cccc(O)c1C(=O)O | - | - | 17.8 µM |
| CC1(C)CC[C@]2(C(=O)NCCCCCC(=O)O)CC[C@]3(C)C(=CCC4[C@@]5(C)CC[C@H](OC(=O)CCCCC(=O)O)C(C)(C)C5CC[C@]43C)C2C1 | - | - | 1.7 µM |
| CC(C)(C)OC(=O)N[C@@H](Cc1ccccc1)[C@H](O)CNC[C@@H](O)[C@H](Cc1ccccc1)NC(=O)C(C)(C)C | pH 5.5 | - | <10 µM |
| COC(=O)[C@]12CCC(C)(C)C[C@H]1C1=CC[C@@H]3[C@@]4(C)CC/C(=N\O)C(C)(C)[C@@H]4CC[C@@]3(C)[C@]1(C)CC2 | - | - | 5.5 µM |
| CC[C@H](CC[C@@H](C)C1CCCC2C3CC=C4C[C@@H](O)CC[C@]4(C)C3CC[C@@]21C)C(C)C | - | - | >300 µM |
| O=C(N[C@@H](Cc1ccc([N+](=O)[O-])cc1)C(=O)NCC[C@@H](CO)NC(=O)[C@H](Cc1ccc([N+](=O)[O-])cc1)NC(=O)OCC1c2ccccc2-c2ccccc21)OCC1c2ccccc2-c2ccccc21 | - | - | 2.11 µM |
| CC(C)(C)OC(=O)N[C@@H](Cc1ccccc1)[C@H](O)CNC[C@@H](O)[C@H](Cc1ccccc1)NC(=O)OC1c2ccccc2CC1O | pH 5.5 | - | <10 µM |
| C[C@@H]1CC[C@]2(C(=O)O)CC[C@]3(C)C(=CCC4[C@@]5(C)CC[C@H](OC(=O)CC(=O)O)C(C)(C)C5CC[C@]43C)C2[C@H]1C | - | - | 6 µM |
| CC(C)(C)OC(=O)N[C@@H](Cc1ccccc1)[C@H](O)CNC[C@@H](O)[C@H](Cc1ccccc1)NC(=O)OC(C)(C)c1ccccc1 | pH 5.5 | - | <10 µM |
| CC1(C)CC[C@]2(C(=O)O)CC[C@]3(C)C(=CC[C@@H]4[C@@]5(C)CC[C@H](O)C(C)(C)[C@@H]5CC[C@]43C)[C@@H]2C1 | - | - | 8 µM |
| CC(C)CC(NC(=O)[C@H](C)NC(=O)C[C@H](O)C(CC(C)C)NC(=O)[C@@H](NC(=O)[C@H](Cc1ccc(O)cc1)NC(=O)OCc1ccccc1)C(C)C)[C@@H](O)CC(=O)NCCCCNc1ccn([C@H]2CS[C@@H](CO[Si](c3ccccc3)(c3ccccc3)C(C)(C)C)O2)c(=O)n1 | - | - | 1 µM |
| CC(C)c1ccccc1Sc1c(O)cc(-c2ccc(OCCc3ccccc3)cc2)oc1=O | pH 4.7 | - | 1.1 µM |
| CCCCCCCC(=O)OC1OC(=O)C(C)(C(C)=O)C1C | - | - | 523 µM |
| CC(C)(CC(=O)O)CC(=O)O[C@H]1CC[C@@]2(C)C(CC[C@]3(C)C2CC=C2C4CC(C)(C)CC[C@]4(C(=O)O)CC[C@]23C)C1(C)C | - | - | 3.8 µM |
| CC(=O)O[C@@H]1OC(Oc2c(-c3ccc(O)cc3)oc3cc(OC4O[C@@H](O)[C@H](O)[C@H](O)[C@H]4O)cc(O)c3c2=O)[C@H](O)[C@@H](OC(C)=O)[C@H]1O | - | - | >300 µM |
| CCC(=O)O[C@H]1c2cc3c(c(OC)c2-c2c(cc(OC)c(OC)c2O)C[C@@H](C)[C@H]1C)OCO3 | - | - | >100 µg/mL |
| COC(=O)[C@H](Cc1ccccc1)NC(=O)[C@H](CCC(=O)OCC1CCCCC1)NC(=O)C[C@H](O)C(CC(C)C)NC(=O)[C@@H](NC(=O)[C@@H](N)Cc1c[nH]c2ccccc12)C(C)C | - | - | 0.05 µM |
| CC1(C)CC[C@]2(C(=O)O)CC[C@]3(C)C(=CC[C@@H]4[C@@]5(C)CC/C(=N\O)C(C)(C)[C@@H]5CC[C@]43C)[C@@H]2C1 | - | - | 9.5 µM |
| Cc1ccc(C(C)(C)C)c(Sc2c(O)cc(-c3ccc(OCc4csc(C)n4)cc3)oc2=O)c1 | pH 4.7 | - | 0.04 µM |
| C=C(C)[C@H]1CC[C@]2(C)[C@H]3CC[C@@H]4[C@@]5(C)C[C@H](O)C[C@@](C)(C(=O)O)[C@@H]5CC[C@@]4(C)[C@]3(C)CC[C@@H]12 | - | - | 10.8 µM |
| CC1(C)CC[C@]2(C(=O)O)CC[C@]3(C)C(=CCC4[C@@]5(C)CC/C(=N\OC(=O)CCCCC(=O)O)C(C)(C)C5CC[C@]43C)C2C1 | - | - | 5.5 µM |
| CCCCCCCCCCCCCCC(=O)C1=C([O-])C(CO)OC1=O.[Na+] | - | - | 123 µM |
| CC(C)(C)OC(=O)N[C@@H](Cc1ccccc1)[C@@H](O)CC(=O)N[C@@H](CCC(=O)O)C(=O)N[C@@H](Cc1ccccc1)C(=O)O | - | - | 0.2 µM |
| CCc1ccccc1Sc1c(O)cc(-c2ccc(OCc3cccnc3)cc2)oc1=O | pH 4.7 | - | 0.232 µM |
| CC(C)(CO)OC(=O)N[C@@H](Cc1ccccc1)[C@H](O)CNC[C@@H](O)[C@H](Cc1ccccc1)NC(=O)C1(O)CCCC1(C)C | pH 5.5 | - | <10 µM |
| CCCCCCCCCCCCCCCC(=O)C1=C([O-])C(CO)OC1=O.[Na+] | - | - | 84 µM |
| CCCCCCCCCCS(=O)(=O)CCC(=O)N[C@H](C(=O)N[C@@H](Cc1ccccc1)[C@@H](O)[C@H](O)[C@H](Cc1ccccc1)NC(=O)[C@@H](NC(=O)CCS(=O)(=O)CCCCCCCCCC)C(C)C)C(C)C | - | D34 | >10 µM |
| CC(=O)O[C@H]1CC[C@]2(C)[C@H]3CC=C4[C@@H]5[C@@H](C)[C@H](C)CC[C@]5(C(=O)O)CC[C@@]4(C)[C@]3(C)CC[C@H]2C1(C)C | - | - | 13 µM |
| CCC(C)CCCCCCCCCCCCC(=O)C1=C([O-])C(CO)OC1=O.[Na+] | - | - | 109 µM |
| COC(=O)[C@]12CCC(C)(C)CC1C1=CCC3[C@@]4(C)CCC(=O)C(C)(C)C4CC[C@@]3(C)[C@]1(C)CC2 | - | - | 20 µM |
| C/C(O)=C/C1CC(=O)OC1Nc1ccc(Br)cc1Br | - | - | 221 µM |
| CC(C)[C@H](NC(=O)[C@H](Cc1cccc2ccccc12)CS(=O)(=O)C(C)(C)C)C(=O)N[C@@H](Cc1ccccc1)[C@H](O)[C@@H](O)[C@H](Cc1ccccc1)NC(=O)[C@@H](NC(=O)[C@H](Cc1cccc2ccccc12)CS(=O)(=O)C(C)(C)C)C(C)C | - | D34 | 0.0003 µM |
| COc1ccc(O)c([C@H]2CC(=O)c3c(O)c(C)c(O)c(C)c3O2)c1 | - | - | 100.9 µM |
| CC(C)CC(NC(=O)[C@@H](NC(=O)[C@H](Cc1c[nH]c2ccccc12)NC(=O)CCCCC(=O)Nc1ccn([C@H]2CS[C@@H](CO)O2)c(=O)n1)C(C)C)[C@@H](O)CC(=O)NC(Cc1ccccc1)c1ccccc1 | - | - | 0.4 µM |
| CC(C)c1ccccc1Sc1c(O)cc(-c2ccc(OCc3ccc4ccccc4c3)cc2)oc1=O | pH 4.7 | - | >10 µM |
| CC1(C)CC[C@]2(C(=O)NCCCCCC(=O)O)CC[C@]3(C)C(=CCC4[C@@]5(C)CC[C@H](O)C(C)(C)C5CC[C@]43C)C2C1 | - | - | 1.7 µM |
| CC(C)(C)S(=O)(=O)C[C@@H](Cc1cccc2ccccc12)C(=O)NCCC(=O)N[C@@H](Cc1ccccc1)[C@@H](O)[C@H](O)[C@H](Cc1ccccc1)NC(=O)CCNC(=O)[C@H](Cc1cccc2ccccc12)CS(=O)(=O)C(C)(C)C | - | D34 | 0.05 µM |
| C=C(C)C1CC[C@]2(C(=O)O)CC[C@]3(C)[C@H](CC[C@@H]4[C@@]5(C)CC[C@H](OC(=O)CCC(=O)O)C(C)(C)[C@@H]5CC[C@]43C)[C@@H]12 | - | - | 6 µM |
| CC(C)C[C@H](NC(=O)C[C@H](O)[C@H](Cc1ccccc1)NC(=O)[C@@H](NC(=O)C1Cc2ccccc2CN1)C(C)C)C(=O)N[C@@H](Cc1ccccc1)C(N)=O | - | - | 0.025 µM |
| C[C@H]1[C@H](C)CC[C@]2(C(=O)O)CC[C@]3(C)C(=CC[C@@H]4[C@@]5(C)CC[C@H](O)C(C)(C)[C@@H]5CC[C@]43C)[C@H]12 | - | - | 8 µM |
| CC(C)[C@H](NC(=O)[C@H](CCCN=C(N)N)NC(=O)N[C@@H](Cc1ccccc1)C(=O)O)C(=O)N[C@H](CO)Cc1ccccc1 | - | - | 17.8 µM |
| CC(C)(C)OC(=O)N[C@@H](Cc1cccc2ccccc12)C(=O)NCC[C@@H](CO)NC(=O)[C@H](Cc1cccc2ccccc12)NC(=O)OC(C)(C)C | - | - | 4.4 µM |
| CCCCCCCCCCCCCCCc1cccc(O)c1 | - | - | >100 µM |
| CC(C)[C@H](NC(=O)Cc1nc2ccccc2[nH]1)C(=O)N[C@@H](Cc1ccccc1)[C@H](O)CNC[C@@H](O)[C@H](Cc1ccccc1)NC(=O)OC(C)(C)C | pH 5.5 | - | <10 µM |
| CC(C)C[C@H](NC(=O)OC(C)(C)C)C(=O)NCC[C@@H](CO)NC(=O)[C@H](CC(C)C)NC(=O)OC(C)(C)C | - | - | 2.4 µM |
| CC1(C)CC[C@]2(C(=O)O)CC[C@]3(C)C(=CCC4[C@@]5(C)CC[C@H](OC(=O)CCCC(=O)O)C(C)(C)C5CC[C@]43C)C2C1 | - | - | 4 µM |
| CC(C)(C)c1ccccc1Sc1c(O)cc(-c2ccc(OCc3cccnc3)cc2)oc1=O | pH 4.7 | - | 0.025 µM |
| Cc1cc(=O)c2c(O)c3c(O)cc(=O)c4c3c3c(cc(O)c1c23)C(C)(C)C=4O | - | - | 21 µM |
| C[C@H]1[C@H](C)CC[C@]2(C(=O)O)CC[C@]3(C)C(=CC[C@@H]4[C@@]5(C)CC[C@H](O)C(C)(C)[C@@H]5CC[C@]43C)[C@H]12 | - | - | 8.9 µM |
| CC1(C)CC[C@]2(C(=O)O)CC[C@]3(C)C(=CCC4[C@@]5(C)CC[C@H](OC(=O)C(=O)O)C(C)(C)C5CC[C@]43C)C2C1 | - | - | 20 µM |
| CC(C)[C@H](NC(=O)[C@H](Cc1ccccc1)NS(C)(=O)=O)C(=O)N[C@@H](Cc1ccccc1)[C@@H](O)[C@H](O)[C@H](Cc1ccccc1)NC(=O)[C@@H](NC(=O)[C@H](Cc1ccccc1)NS(C)(=O)=O)C(C)C | - | D34 | 0.0008 µM |
| COc1cc2c(c(O)c1OC)-c1c(cc3c(c1OC)OCO3)[C@H](OC(=O)/C=C/c1ccccc1)[C@H](C)[C@H](C)C2 | - | - | 50 µg/mL |
| CCCCCCCCCCCCCCCC(=O)O | - | - | >300 µM |
| CCCC[C@H](NC(=O)[C@H](C)NC(=O)[C@H](CCC(=O)O)NC[C@H](Cc1ccccc1)NC(=O)[C@H](CC(C)C)NC(=O)[C@@H](NC(=O)[C@@H](N)CCCN=C(N)N)C(C)C)C(N)=O | - | - | <0.075 µM |
| CC1(C)CC[C@]2(C(=O)NCCCCCC(=O)O)CC[C@]3(C)C(=CCC4[C@@]5(C)CC[C@H](O)C(C)(C)C5CC[C@]43C)C2C1 | - | - | 1.7 µM |
| CC(C)[C@H](NC(=O)[C@H](C)O)C(=O)N[C@@H](Cc1ccccc1)[C@H](O)CNC[C@@H](O)[C@H](Cc1ccccc1)NC(=O)OC(C)(C)C | pH 5.5 | - | <10 µM |
| CC(C)c1ccccc1Sc1c(O)cc(-c2ccc(OCC(=O)O)cc2)oc1=O | pH 4.7 | - | 0.019 µM |
| CC1(C)CC[C@]2(C(=O)O)CC[C@]3(C)C(=CCC4[C@@]5(C)CC[C@H](NC(=O)CCCCC(=O)O)C(C)(C)C5CC[C@]43C)C2C1 | - | - | 3 µM |
| O=C(N[C@@H](Cc1ccccc1)C(=O)NCCCC[C@@H](CO)NC(=O)[C@H](Cc1ccccc1)NC(=O)OCC1c2ccccc2-c2ccccc21)OCC1c2ccccc2-c2ccccc21 | - | - | 1.39 µM |

9 of the rows above, restated:

compound,conditions,strain or isolate,result
C=C(C)C1CC[C@]2(C(=O)O)CC[C@]3(C)[C@H](CC[C@@H]4[C@@]5(C)CC[C@H](OC(=O)CCC(=O)O)C(C)(C)[C@@H]5CC[C@]43C)[C@@H]12,-,-,6 µM
CC(=O)O[C@@H]1OC(Oc2c(-c3ccc(O)cc3)oc3cc(OC4O[C@@H](O)[C@H](O)[C@H](O)[C@H]4O)cc(O)c3c2=O)[C@H](O)[C@@H](OC(C)=O)[C@H]1O,-,-,>300 µM
CCCCCCCCCCS(=O)(=O)CCC(=O)N[C@H](C(=O)N[C@@H](Cc1ccccc1)[C@@H](O)[C@H](O)[C@H](Cc1ccccc1)NC(=O)[C@@H](NC(=O)CCS(=O)(=O)CCCCCCCCCC)C(C)C)C(C)C,-,D34,>10 µM
CC(C)(C)S(=O)(=O)C[C@@H](Cc1cccc2ccccc12)C(=O)NCCC(=O)N[C@@H](Cc1ccccc1)[C@@H](O)[C@H](O)[C@H](Cc1ccccc1)NC(=O)CCNC(=O)[C@H](Cc1cccc2ccccc12)CS(=O)(=O)C(C)(C)C,-,D34,0.05 µM
Cc1cc(=O)c2c(O)c3c(O)cc(=O)c4c3c3c(cc(O)c1c23)C(C)(C)C=4O,-,-,21 µM
CCCCCCCC(=O)OC1OC(=O)C(C)(C(C)=O)C1C,-,-,523 µM
CC(C)(C)c1ccccc1Sc1c(O)cc(-c2ccc(OCc3cccnc3)cc2)oc1=O,pH 4.7,-,0.025 µM
COC(=O)[C@]12CCC(C)(C)C[C@H]1C1=CC[C@@H]3[C@@]4(C)CC/C(=N\O)C(C)(C)[C@@H]4CC[C@@]3(C)[C@]1(C)CC2,-,-,5.5 µM
CC(=O)O[C@H]1CC[C@]2(C)[C@H]3CC=C4[C@@H]5[C@@H](C)[C@H](C)CC[C@]5(C(=O)O)CC[C@@]4(C)[C@]3(C)CC[C@H]2C1(C)C,-,-,13 µM